The record followed here is article PMC10655190, “Targeted Mutation of a Non-catalytic Gating Residue Increases the Rate of Pseudomonas aeruginosaD-Arginine Dehydrogenase Catalytic Turnover” (Journal of Agricultural and Food Chemistry, 2023).

The test system of one data set is CC(C)C[C@@H](N)C(=O)O. The data set is described as follows: purified protein. The conditions noted are these: 1 mM PMS, 20 mM sodium pyrophosphate, pH 10.0, 25 °C.
The subject of data set [1] is N=C(N)NCCC[C@@H](N)C(=O)O. The data set is described as follows: purified protein. Particulars: 1 mM PMS, 20 mM sodium pyrophosphate, pH 10.0, 25 °C.

For “Pseudomonas aeruginosa D-arginine dehydrogenase (PaDADH) (Pseudomonas aeruginosa PAO1; E246G)”, in the data set with CC(C)C[C@@H](N)C(=O)O, the Km (in general, the concentration of substrate that gives half-maximal velocity) is 7.3 ± 0.7 mM; the kcat (in general, the maximal rate divided by the concentration of active sites) turned out to be 35 s⁻¹; the kcat/Km (usually the second-order rate constant that governs catalysis at low substrate concentration) was determined as 4800 M⁻¹ s⁻¹. In addition, in data set [1], the Km was 0.20 ± 0.02 mM, the kcat came to 500 s⁻¹ and the kcat/Km came to 2.5e+06 M⁻¹ s⁻¹.
For “Pseudomonas aeruginosa D-arginine dehydrogenase (PaDADH) (Pseudomonas aeruginosa PAO1; E246Q)”, in the data set on CC(C)C[C@@H](N)C(=O)O, the Km stood at 11 ± 1 mM, the kcat came to 30 s⁻¹ and the kcat/Km amounted to 2600 M⁻¹ s⁻¹. Moreover, in data set [1], the Km came out at 0.19 ± 0.01 mM, the kcat came out at 275 s⁻¹ and the kcat/Km stood at 1.5e+06 M⁻¹ s⁻¹.
“Pseudomonas aeruginosa D-arginine dehydrogenase (PaDADH) (Pseudomonas aeruginosa PAO1; E246L)”: in the data set with CC(C)C[C@@H](N)C(=O)O, the Km was 5.8 ± 0.6 mM, the kcat amounted to 27 s⁻¹ and the kcat/Km came to 4600 M⁻¹ s⁻¹. Besides, in data set [1], the Km turned out to be 0.30 ± 0.02 mM, the kcat worked out at 265 s⁻¹ and the kcat/Km was 871000 M⁻¹ s⁻¹.
